Results deposited as PubChem BioAssay AID624099 (ICCB-Longwood, 2012)

Test: 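Knock-downs relieving repression by E2 of an HPV18 LCR luciferase reporter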 (primary screen)
Cells: human C33A cervical carcinoma cells (HPV-negative) stably expressing BPV1 E2 and an HPV18 LCR luciferase reporter
Reagents: siRNA pool against human genes, 40 nM
Timing: 72 h
Measured: 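HPV18 LCR reporter light per well, converted to plate-wise z-scores that exclude control wells, and averaged over triplicate plates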
Direction: mean z-score and z-score: higher = stronger reporter signal, weaker E2 silencing
Call rule: 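Hit if mean z-score reaches 2 and two or more of three replicate z-scores also reach 2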
The whole screen tested about 21,000 reagents; this is a random part of them. In the full data, 497 (2.4%) are marked active. 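Higher z means weaker E2 silencing; only reporter increases were scored, and knock-downs that hurt cell survival may mask genuine repressor factors.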 No sequences are given here.

The opening 2 records, ahead of the listing:
Target gene	mean z-score	z-score, replicate A	z-score, replicate B	z-score, replicate C	call
DISP3	1.08	0.34	2.41	0.48	inactive
DDT	0.39	0.06	0.38	0.73	inactive

Results, from the first entry:
Target gene	mean z-score	z-score, replicate A	z-score, replicate B	z-score, replicate C	call
DISP3	1.08	0.34	2.41	0.48	inactive
DDT	0.39	0.06	0.38	0.73	inactive
JCHAIN	1.05	1.13	1.08	0.95	inactive
ALKBH1	-0.46	-0.52	-0.38	-0.49	inactive
TPSG1	-0.19	-0.28	-0.08	-0.21	inactive
ZNF850-DT	-0.52	-0.44	-0.5	-0.62	inactive
LOC389242 (retired record)	0.48	0.06	1.27	0.12	inactive
DCAF12L2	0.03	0.11	-0.05	0.03	inactive
MRPL52	-0.58	-0.55	-0.98	-0.22	inactive
TIPE1	-0.13	-0.13	-0.5	0.23	inactive
MMP3	2.92	2.45	3.23	3.07	active
PENK	-1.08	-1.33	-1.09	-0.81	inactive
IFIT3	-0.14	-0.6	-0.04	0.23	inactive
IPO7	-0.18	-0.29	-0.04	-0.2	inactive
HYAL2	-1.26	-1.33	-1.19	-1.27	inactive
NOX4P1	1.5	1.86	1.14	1.49	inactive
SRSF12	0.05	0.15	-0.05	0.05	inactive
ENDOG	1.29	1.06	1.65	1.16	inactive
FBXO38	-0.46	-0.06	-0.68	-0.65	inactive
TJAP1	-0.65	-0.65	-0.49	-0.81	inactive
GNAI2	-1.8	-1.71	-1.98	-1.72	inactive
LASP1	-1.08	-0.88	-1.15	-1.22	inactive
SNRPC	0.32	0.3	0.28	0.38	inactive
